Values quoted from earlier work in US7750031B2, “Caffeic acid derivative and composition containing the same” (Thefaceshop Korea Co., Ltd., priority 2007, dated 2010).

Tested on: aflatoxin
Settings: cited from earlier work

In the case of `O=C(O)/C=C/c1ccc(O)c(O)c1` [caffeic acid], the “decrease of the production of aflatoxin” value is listed as “more than 95%”.
